Patent US20230364057A1, “BACTERIAL DNA GYRASE INHIBITORS AND METHODS OF USE THEREOF” (THE FLORIDA INTERNATIONAL UNIVERSITY BOARD OF TRUSTEES, priority 2022, published 2023)

Protein sequences, listed by entry. Tags and fused reporters are not part of them. Residues count along the entry.
UniProt P0AES4, 2-875 limits assumed: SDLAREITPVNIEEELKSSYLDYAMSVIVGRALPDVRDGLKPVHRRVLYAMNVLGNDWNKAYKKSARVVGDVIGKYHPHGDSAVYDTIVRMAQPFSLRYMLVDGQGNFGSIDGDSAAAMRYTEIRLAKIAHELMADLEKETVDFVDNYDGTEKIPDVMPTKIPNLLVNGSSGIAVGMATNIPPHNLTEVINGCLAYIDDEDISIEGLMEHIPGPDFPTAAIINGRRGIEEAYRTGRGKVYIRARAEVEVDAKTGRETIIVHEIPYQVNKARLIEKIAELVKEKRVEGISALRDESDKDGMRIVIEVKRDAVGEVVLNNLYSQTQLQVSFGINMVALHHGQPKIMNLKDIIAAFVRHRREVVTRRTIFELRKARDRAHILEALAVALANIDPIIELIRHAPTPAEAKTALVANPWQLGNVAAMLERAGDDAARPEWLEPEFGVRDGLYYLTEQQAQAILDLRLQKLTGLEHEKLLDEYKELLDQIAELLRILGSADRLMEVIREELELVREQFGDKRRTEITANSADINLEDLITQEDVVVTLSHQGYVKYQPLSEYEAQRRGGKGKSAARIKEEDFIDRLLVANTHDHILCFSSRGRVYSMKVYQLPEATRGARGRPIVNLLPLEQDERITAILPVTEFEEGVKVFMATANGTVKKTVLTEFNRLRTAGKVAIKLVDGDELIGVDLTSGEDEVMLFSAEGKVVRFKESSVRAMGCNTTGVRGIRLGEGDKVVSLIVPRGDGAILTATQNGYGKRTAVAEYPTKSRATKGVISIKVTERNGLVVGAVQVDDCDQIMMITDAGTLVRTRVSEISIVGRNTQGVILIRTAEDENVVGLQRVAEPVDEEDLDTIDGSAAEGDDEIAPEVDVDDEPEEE

Target: E. coli DNA gyrase (Escherichia coli (strain K12), UniProt P0AES4+P0AES6)
Assay: Agarose gel-based DNA gyrase inhibition assay
Type: biochemical

N/N=C1\c2ccccc2C(=O)C1C(=O)C(c1ccccc1)c1ccccc1 (centres unmarked)
inhibition of E. coli DNA gyrase activities (50 µM of compounds): inhibited
inhibition of E. coli DNA gyrase activities (200 µM of compounds): completely inhibited
